Results published in publication PMC7993394 (Journal of Enzyme Inhibition and Medicinal Chemistry, 2021).

target: BpHldC (Burkholderia pseudomallei, UniProt Q63XZ4); experiment: malachite green kinetics, secondary plot of slope vs inhibitor; settings: read-out: βG1P / Ki; mixed type versus βG1P (varied) at 0.5 mM ATP; Tris pH 7.5, 10 mM MgCl2, room temperature

SMILES	Ki [µM]
CCOC(=O)c1sc(NC(=O)CSc2nnc(-c3ccccc3OCC)o2)c(C#N)c1C [compound 7991890, ethyl 4-cyano-5-[({[5–(2-ethoxyphenyl)-1,3,4-oxadiazol-2-yl]thio}acetyl)amino]-3-methyl-2-thiophenecarboxylate]	39.6
CCOC(=O)c1sc(NC(=O)CSc2nnc(-c3ccc(Cl)cc3)o2)c(C#N)c1C [compound 7933420, ethyl 5-[({[5–(4-chlorophenyl)-1,3,4-oxadiazol-2-yl]thio}acetyl)amino]-4-cyano-3-methyl-2-thiophene carboxylate]	6.02
CCOC(=O)c1sc(NC(=O)CSc2nnc(Cc3ccccc3)o2)c(C#N)c1C [compound 7929959, ethyl 5-({[(5-benzyl-1,3,4-oxadiazol-2-yl)thio]acetyl}amino)-4-cyano-3-methyl-2-thiophenecarboxylate]	0.15
